Laboratory results reported in the supplement of paper PMC9931576.
Human monoclonal antibodies against the spike receptor-binding domain (heavy:light variable regions). IC50 against pseudoviruses bearing the spike of naturally observed variants; lower = stronger; >10 µg/ml means not reached at the top dose. No active / inactive call. The stated detection limit is 0.0005 µg/ml; values near or below 0.001 µg/ml lie at the floor of the assay.

B1: BD56-918 (protein)
chain 1: QVQLVQSGAEVKKPGASVKVSCEAIGYTFANYGIGWVRQAPGQGLEWMGWINAYNGNTNYAQKFQGRVTMTTDTSTRTAYMELRSLRSDDTAVYYCAREGGYCSSSSCHSTSDNYFDSWGQGTLVTVSS
chain 2: SYVLTQPPSVSVAPGKTARITCGGSNIGSKGVHWYQQRPGQAPVLVIYFDSDRPSGIPERFSGSNSGNTATLTITRVDAGDEADYYCQVWDSSGDHWVFGGGTKLTVL
B2: BD56-900 (protein)
chain 1: EVQLVESGGDLVQPGRSLRLSCAASGFTFDDYAMHWVRQVPGKGLEWVSGITWNGGIIDYADSVKGRFIISRDNAKNSLYLQMISLRVEDTALYYCAKDLFSDDRRDYHYAMDVWGQGTTVTVSS
chain 2: SYVLIQPPSVSVAPGKTARISCGGRNIDSKSVHWYQQKPGQAPVLVIYYNSDRPSGIPERFSGSNSGNTATLTISRVEAGDEADYFCQVWDSSSDHVMFGGGTKLTVL
B3: BD56-908 (protein)
chain 1: EVQLVESGGGLVQPGRSLRLSCAASGFTFDDYAMHWVRQAPGKGLEWVSGITSNSGTIGYADAVKGRFTISRDNAKHSLYLQMNSLRREDTALYYCAKDARKWLVEGEGYLHYWGQGTLVTVSS
chain 2: QSALTQPASVSGSPGQSITISCTGTSSDVGAYNYVSWYQQHPGNAPEVMIYDVNKRPSGVSNRFSGSKSGNTASLTISGLQAEDETDYYCSSYTTSSTYVFGTGTKVTVL
B4: BD56-910 (protein)
chain 1: EVHLVESGGGLVQPGRSLRLSCAASEFTFDDYAIHWVRQGPGKGLEWVSGITSNGGSIGYSDSVKGRFIISRDNAKNSLYLQMNSLKAEDTALYYCAKDARRWLLEGEGYFDYWGQGTLVIVSS
chain 2: HSALTQPASVSGSPGQSITISCTGTSGDVGVYNFVSWYQQHPGKAPKLMIYDVSKRPSGVSNRFSGSKSGNTASLTISGLQAEDEADYYCSSYTTSSTYVFGPGTKVTVL
B5: BD56-925 (protein)
chain 1: QVHLVQSGAEVKKPGASVKVSCKASGYTFTSYGISWVRQAPGQGLEWMGWISTFNGDTTYAQKTQGRVTMTTDTSTSTAYLELRNLRSDDTAVFYCARVVSFYDRSTFYFFDYWGQGTLVTVSS
chain 2: EIVMTQSPATLSVSPGERATLSCRASQSISSNLAWYQQKPDQTPRLLIYGASTRATGIPARFSGSGSGTEFTLTISSLKSEDFAVYYCQQYDDWPPTWTFGQGTRVEIK
B6: BD56-914 (protein)
chain 1: QVQLVESGGGVAQPGTSVRLSCAASGFTFSSYAMHWVRQAPGKGLEWVAVISYDGRNKYYVDSVKGRFTISRDNSKNTLYVQMNSLRPEDTAVYYCTKAAGSGWYDVYQFGMDVWGRGTTVTVSS
chain 2: QSVLTQPPSVSGAPGQRVTISCTGRSSNIGSGYDVHWYQQLPGTAPKLLIYANSNRPSGVPDRFSGSKSDISASLAITGLQAEDEADYYCQSYDSTLSRWVFGGGTRLTVL
B7: BD56-917 (protein)
chain 1: EVQVLESGGGLVQPGGSLRLSCAASGFTFNIYAMNWVRQAPGKGLEWVSLISGSGDHTYYADSVKGRFTISRDNSKNTVYLQMNSLRAEDTAVYYCTMKYRLVSVVYYFDFWGQGTQVTVSS
chain 2: DIQMTQSPSSLSASIGDRVTITCRASQGINNYLNWYQQKPGKAPNLLIYAASNLQSGVPSRFSGSGSGTDFTLTISSLQPEDFATYYCQQSYNTPRTFGQGTKLEMK
B8: BD56-903 (protein)
chain 1: QVQLVQSGAEVKKPGSSVKVSCKASGGTFSSYSISWVRQAPGQGLEWMGKIIPILGVANYAQNFQGRVTVTADKSTSTAYMELSSLTSEDTAVYYCAKEGGRRDWYFDLWGRGTLVTVSS
chain 2: QSVLTQPPSVSGAPGQRVTISCTGSNSNIGAGYDVHWYQQLPGSAPKLLIYANSNRPSGVPDRFSGSKSGTSGTLAITGLQAEDEADYYCQSYDSSLSDLVFGGGTKLTVL
B9: BD56-905 (protein)
chain 1: QLQLQESGPGLVKPSETLSLTCTVSKGSISSTNYYWGWIRQPPGKGLEWIGHIYYSGATYYNSSLKSRVTISVDTSKNQFSLKLSSVTAADTAVYYCARQSRTFGEIIALDYWGQGTLVTVSS
chain 2: QSALTQPRSVSGSPGQSVTISCTGTSSDVGGYDYVSWYQQHPGKAPKLMIYDVIKRPSRVPDRFSGSKSGNTASLTISGLQAEDEADYYCCSYAGISVIFGGGTKLTVL
B10: CV07-222 (protein)
chain 1: QVQLVQSGAEVKKPGASVKVSCKASGYTFTDYYVHWVRQAPGQGLEWMGWINPISGGTNYAQKFQGRVTMTRDTSISTAYMELSRLRSDDTAVYYCARGPYYYDSSGSLGAFDIWGQGTMVTVSS
chain 2: QSALTQPASVSGSPGQSITISCTGTSSDVGSYNLVSWYQQHPGKAPKLMIYEGSKRPSGVSNRFSGSKSGNTASLTISGLQAEDEAHYYCCSYAGGSTSYVFGTGTKVTVL
B11: BD56-927 (protein)
chain 1: QVTLRESGPALVKPTQTLTLTCTFSGFSFSTSGMCVTWIRQPPGKALEWLALINSDDDKYYSTSLKPRLTISKDTSKNQVVLTMTKVDPVDTATYYCARINRVNYYDRSGYRAFDYYGLDVWGQGTTVTVSS
chain 2: EIVLTQSPDTLSLSPGERATLSCRASQSVSSTYLAWYQHKPAQAPRLLIYGASSRATGIPDRFGGSGSGTDFTLTISRVEREDFAVYYCQQYGGSTPITFGQGTRLEMK
B12: BD56-912 (protein)
chain 1: QLQLQESGPGLVKPSETLSLTCSVSGGYVSSGSYYWAWLRQPPGTGLEWIGSISYTGTTSYNPSLKSRVTLSVDTSMDQFSLKVTSVTAADTAVYYCARGSTIRLSDAFDIWGQGTIVTVFS
chain 2: QSVLTQPPSVSAAPGQKVTISCSGSSTNIGNNYVSWYQQLPGTAPKLLIYGNNKRPSGIPDRFSGSKSGTSATLGITGLLTGDEAAYYCGTWDTSLRAVVFGGGTKLTVL

Target: SARS-CoV-2 Omicron BA.1 spike pseudovirus
Assay: pseudovirus neutralization IC50; higher = weaker neutralization
Method: (§1)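 Single-round VSV luciferase pseudovirus mixed with antibody dilutions for 1 h and put on Huh-7 cells for about a day; IC50 from the dose curve.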

First: B1
Second: B2
The “pseudovirus neutralization IC50” value of the first is 180-fold higher: 3.14 µg/mL for the first, 0.0176 µg/mL for the second.

Going from B3 to B4, the “pseudovirus neutralization IC50” value falls from 0.202 µg/mL to 0.0566 µg/mL (3.6-fold).

Going from B5 to B6, the “pseudovirus neutralization IC50” value rises from 0.496 µg/mL to over 10 µg/mL.

Compared with B7, B8 is 120-fold higher in “pseudovirus neutralization IC50” value: 0.00303 µg/mL for the first, 0.362 µg/mL for the second.

B9 and B10 cannot be ordered by “pseudovirus neutralization IC50” value: over 10 µg/mL for the first, over 10 µg/mL for the second.

Going from B11 to B12, the “pseudovirus neutralization IC50” value rises from 0.237 µg/mL to over 10 µg/mL.

Target: SARS-CoV-2 Omicron BA.2 spike pseudovirus
Assay: as above
Method: as §1

Going from B1 to B2, the “pseudovirus neutralization IC50” value falls from 5.76 µg/mL to 0.0138 µg/mL (420-fold).

First: B3
Second: B4
The “pseudovirus neutralization IC50” value of the first is 11-fold higher: 0.329 µg/mL for the first, 0.0301 µg/mL for the second.

First: B5
Second: B6
The “pseudovirus neutralization IC50” value of the first is lower: 0.309 µg/mL for the first, over 10 µg/mL for the second.

First: B7
Second: B8
The “pseudovirus neutralization IC50” value of the first is 190-fold lower: 0.00194 µg/mL for the first, 0.371 µg/mL for the second.

B9 and B10 cannot be ordered by “pseudovirus neutralization IC50” value: over 10 µg/mL for the first, over 10 µg/mL for the second.

Going from B11 to B12, the “pseudovirus neutralization IC50” value rises from 1.62 µg/mL to over 10 µg/mL.

Target: SARS-CoV-2 Omicron BA.2.75 spike pseudovirus
Assay: as above
Method: as §1

Compared with B1, B2 is lower in “pseudovirus neutralization IC50” value: over 10 µg/mL for the first, 0.0143 µg/mL for the second.

First: B3
Second: B4
The “pseudovirus neutralization IC50” value of the first is 12-fold higher: 0.211 µg/mL for the first, 0.017 µg/mL for the second.

Going from B5 to B6, the “pseudovirus neutralization IC50” value rises from 0.299 µg/mL to over 10 µg/mL.

Compared with B7, B8 is 540-fold higher in “pseudovirus neutralization IC50” value: 0.00129 µg/mL for the first, 0.701 µg/mL for the second.

B9 and B10 cannot be ordered by “pseudovirus neutralization IC50” value: over 10 µg/mL for the first, over 10 µg/mL for the second.

First: B11
Second: B12
The “pseudovirus neutralization IC50” value of the first is lower: 1.18 µg/mL for the first, over 10 µg/mL for the second.

Target: SARS-CoV-2 Omicron BA.5 spike pseudovirus
Assay: as above
Method: as §1

B1 and B2 cannot be ordered by “pseudovirus neutralization IC50” value: over 10 µg/mL for the first, over 10 µg/mL for the second.

B3 and B4 cannot be ordered by “pseudovirus neutralization IC50” value: over 10 µg/mL for the first, over 10 µg/mL for the second.

Going from B5 to B6, the “pseudovirus neutralization IC50” value rises from 0.738 µg/mL to over 10 µg/mL.

B7 and B8 cannot be ordered by “pseudovirus neutralization IC50” value: over 10 µg/mL for the first, over 10 µg/mL for the second.

B9 and B10 cannot be ordered by “pseudovirus neutralization IC50” value: over 10 µg/mL for the first, over 10 µg/mL for the second.

Going from B11 to B12, the “pseudovirus neutralization IC50” value rises from 1.96 µg/mL to over 10 µg/mL.

Target: SARS-CoV-2 Omicron BQ.1.1 spike pseudovirus
Assay: as above
Method: as §1

B1 and B2 cannot be ordered by “pseudovirus neutralization IC50” value: over 10 µg/mL for the first, over 10 µg/mL for the second.

B3 and B4 cannot be ordered by “pseudovirus neutralization IC50” value: over 10 µg/mL for the first, over 10 µg/mL for the second.

Compared with B5, B6 is higher in “pseudovirus neutralization IC50” value: 1.24 µg/mL for the first, over 10 µg/mL for the second.

B7 and B8 cannot be ordered by “pseudovirus neutralization IC50” value: over 10 µg/mL for the first, over 10 µg/mL for the second.

B9 and B10 cannot be ordered by “pseudovirus neutralization IC50” value: over 10 µg/mL for the first, over 10 µg/mL for the second.

First: B11
Second: B12
The “pseudovirus neutralization IC50” value of the first is lower: 1.89 µg/mL for the first, over 10 µg/mL for the second.

Target: SARS-CoV-2 Omicron XBB spike pseudovirus
Assay: as above
Method: as §1

Going from B1 to B2, the “pseudovirus neutralization IC50” value falls from over 10 µg/mL to 2.22 µg/mL.

First: B3
Second: B4
The “pseudovirus neutralization IC50” value of the first is lower: 3.67 µg/mL for the first, over 10 µg/mL for the second.

Compared with B5, B6 is higher in “pseudovirus neutralization IC50” value: 2.57 µg/mL for the first, over 10 µg/mL for the second.

Going from B7 to B8, the “pseudovirus neutralization IC50” value falls from over 10 µg/mL to 2.86 µg/mL.

B9 and B10 cannot be ordered by “pseudovirus neutralization IC50” value: over 10 µg/mL for the first, over 10 µg/mL for the second.

Going from B11 to B12, the “pseudovirus neutralization IC50” value rises from 1.57 µg/mL to over 10 µg/mL.

Target: SARS-CoV-2 early D614G spike pseudovirus
Assay: as above
Method: as §1

Going from B1 to B2, the “pseudovirus neutralization IC50” value falls from 6.83 µg/mL to 0.0296 µg/mL (230-fold).

Going from B3 to B4, the “pseudovirus neutralization IC50” value falls from 0.156 µg/mL to 0.0373 µg/mL (4.2-fold).

Compared with B5, B6 is higher in “pseudovirus neutralization IC50” value: 0.8 µg/mL for the first, over 10 µg/mL for the second.

Going from B7 to B8, the “pseudovirus neutralization IC50” value rises from 0.00326 µg/mL to 0.506 µg/mL (160-fold).

Compared with B9, B10 is lower in “pseudovirus neutralization IC50” value: over 10 µg/mL for the first, 0.0151 µg/mL for the second.

Going from B11 to B12, the “pseudovirus neutralization IC50” value rises from 0.0736 µg/mL to 3.02 µg/mL (41-fold).
